From PMC7280030

Legend:
RpoN2 (sigma54) = RpoN2 (sigma54) (UniProt B0RT01); assay: EMSA; details: 0-8 uM protein, no core RNAP, recombinant protein, residues 21-487, protein details: N-terminal His6 (pET-28b), probe letters rebuilt from the primers and the genome
RpoN1 (sigma54) = RpoN1 (sigma54) (UniProt B0RQH3); assay: EMSA; details: 0-8 uM protein, no core RNAP; recombinant protein; protein details: N-terminal His6 (pET-28b); probe letters rebuilt from the primers and the genome

| Sequence | binding result (RpoN1 (sigma54)) | other results |
| --- | --- | --- |
| ACGGCCGAGAACAGCTAGTAACAGCGAAGGGACAGCGACAGCGACGAGGTAAGGGGCACGGCCACCTTCAAGACCGTGGAGGGCGCACTGCGTATCACCGGCCAACTGAGCGGGCTCAAGCCCAACAGCGAGTATGGCTTCCACAGCGGCAGCGGCAGATTCGCCGCATCGCTGCTCGGTGCGCCACCGCAATCAGTCCCAACCGGGCGCTTCGGCACCGTGACCAGAACGATCCCCACTCCCGTGTCGACAGACTCAACAATCCTTGCTCGGTGCACCACCGCAATGCGTGCCCGCATCGGGCACTTCAGCCCCTGCTCCAAACGAATCACCAATCCCACCTCCCCAATCCCCTCCTTTGGCACCGCACTTGCATCAGCACTCCCCATGAGCCCTGAAATCGCCCTGACCGAATTGCGTGGTGGCCTGGTCACCGTCTTGTGGATTGCCGGACCGATGTTGCTGGCGGTGCTGGTCGTTGGTGTCGTGATTGGTGTG (double strand) [pXCC fliQ] |  | binding result (RpoN2 (sigma54); legend body names RpoN1, title and text RpoN2): binds |
| GCCGGATAACTTTGCAACCAAGGACGTGCCTGACTCATCTGCCCCCCCTCCAGGGTATTCGTTGGTGGCGTGCCATGTTCCACGGCGCCACAGCAACTGGCAGCATACCGTCATGGATGGAAAAGGCGAAGCGTGATGCGCAGCAGCATTTTGAGGTGGCAGGTCGGGCTAGTCGCGTTCTGCGTGCTGCTGGTGGCCGGCTGCGCGAAGCCGGGCCCGGAGCAGCGGCTGCGTGCCACGGTGGAGCAGATGCGCGCGGCGATCGAGGCACGCGATGTACGCGGGGCGATGGCGCCGGTGGCAGAGGATTTTGTCGGCGAGCACGGCATGGACGCGGCCGGGGCGCGGCGCCTGCTGCAACTGCAACTGCTGGGTCATCAAGCGATCGGCGTCACCGTCGGGCCGGTGGACGTGCAGATGCAGGGCAGTACGGCAACCGTGCGCTTCAGCGTGTTGCTGACCGGCGGCGGCGGACGCTGGCTGCCTGATCAGGCGCAGCACTACCAGGTCACCA (double strand) [pXCC rpfB] | binds |  |
| TCGAACTGTTGGTGTTGAGGTTACGCTGAGCGTTCAGCGACATTACGTTGGTGTTGATTACCTGTGCCATTTTGATATCTCCTCTAAGCGATTTTTCCGGCAAGGGGGCTTGCCTGGAGCCTCCGCAGGGGGGCCATCAAGTTGGCCGTTGCCGCTGCTGAGATGAATAACGGCGATGCTCTGGGAACCTTTAGCGCATTTCAGTATTTTTTTTCTATTTCTTGCTTGAAGGCGCAACGCGCGTAGCGTTGTGTATCAAGGGGTTCGGTTTATTCGGCAGCAACTGCCAGATCTTTAGCGTTGGTATAAATGCACCCGCGATAAACTCCGTTGCCTTCGCACATTGCTTGGTGCGAAGGGGCAGGAAACCACGGGTTTTTGCGCGCAATCAGCGGATCAGATTGAACAGC (double strand) [pXCC fliC] |  | binding result (RpoN2 (sigma54)): binds |
| TCGTTGCTCATTGAAAATCCTTGCGGTGTGGGCAGTGGGAAAGGAATCAGCCGGCAGTGGAGATACGTACTGGCCGAACAAAGCGGGGAATCACAACGGCGTCGTCCATGCAGGGATGCACCTCGCCGCGTGTTGCGGCGTTGCTGAAGCACTCTGCGGTGGTGGAGATGGCGTTGTTCATGTCATTCGAAACTTTTGGTGGTCCCTGAAACGCGAAACCCCGCGCCGTTGCCGGTGCGGGGTCTGATCGAAGCCTTGTGTGTCTGTTGCCTACACGAAGCCGCGTCCCGCACCGGTTGGCGAGGTAATAAGTACGAGCACGAGAAGCGACGCCGGCACGCCGATGGGCGCGGGCAGTGAAGCGTTCAAGGTGGCGGTGCGGTGCGGCATGGACCTGAGATAACCACCG (double strand) [pXCC leuA] | binds |  |

For at least one entry, the source does not settle the construct or the ends of the probe.
